Assay results as given in patent US12492189B2, “Solid forms of an HIV capsid inhibitor” (Gilead Sciences, Inc., priority 2017, dated 2025).

Test system: MT4 cells
Assay: Test B: Cytotoxicity Assay (uninfected cells)
Format: cell-based
Settings: 5 days, CellTiter-Glo

Compound | CC50
Cn1nc(NS(C)(=O)=O)c2c(Cl)ccc(-c3ccc(C#CC(C)(C)O)nc3[C@H](Cc3cc(F)cc(F)c3)NC(=O)Cn3nc(C(F)F)c4c3C(F)(F)[C@@H]3C[C@H]43)c21 [Compound A] | 21.8 µM
Cn1nc(NS(C)(=O)=O)c2c(Cl)ccc(-c3ccc(C#CC(C)(C)O)nc3[C@H](Cc3cc(F)cc(F)c3)NC(=O)Cn3nc(C(F)(F)F)c4c3C(F)(F)[C@@H]3C[C@H]43)c21 [Compound B, reference compound] | 14.5 µM
